# Measurements: patent US20230272050A1, “BINDING PROTEIN SPECIFIC FOR THE SPIKE PROTEIN OF SEVERE ACUTE RESPIRATORY SYNDROME CORONA VIRUS 2 (SARS-COV-2)” (priority 2020, published 2023)
# Target: SARS-CoV-2 S protein RBD (E484Q, L452R) (Severe acute respiratory syndrome coronavirus 2, E484Q/L452R)
molecule,measurement,value
212896 (protein) AVLDIDQHAATEEIWWLPNLTKQQKVWFIMSLTQDPSVSLEILAEAKKLNDAQAPKIAAQHDKIQQAADKEILHLPNLTEEQRNKFRQSLRDDPSVSAEILAEAKKLNDAQAPKIAAQHDKIQQAADKEILHLPNLTEEQRNKFRQSLRDDPSVSAEILAEAKKLNDAQAPKIAAQHDKIQQAADKEILHLPNLTEEQRNKFRQSLRDDPSVSAEILAEAKKLNDAQAPKC,"binding affinity to RBD (E484Q, L452R) (B.1.617.1), qualitative",showed binding affinity
